Measured values from several laboratories, pooled; numbers as filed in NIAID ChemDB.

All rows: enzyme or target tests

Two numbers with a dash give a range or band. ICn: concentration for n% inhibition. Blank or dashed fields: not listed here. Neighbouring rows are from separate reports. Percent inhibition refers to the dose given; in toxicity tests it is the harm to the cells. Fold resistance has wild type as its base.

| smiles | organism | strain or isolate | changes | protein | method | endpoint | dose | result |
|---|---|---|---|---|---|---|---|---|
| O=c1c(CO)cn2ccn(Cc3cccc(Cl)c3)c(=O)c2c1O | HIV-1 | - | - | Integrase | ELISA | IC50 | - | 0.01–0.1 µM |
| Nc1nc2c(ncn2[C@H]2CC[C@@H](COP(=O)(O)OP(=O)(O)NP(=O)(O)OP(=O)(O)OC[C@H]3O[C@@H](n4cnc5c(N)ncnc54)[C@H](O)[C@@H]3O)O2)c(=O)[nH]1 | HIV | - | RT-D67N K70R T215Y K219Q | Reverse transcriptase | nucleotide incorporation / radiometric | IC50 | - | 28 µM |
| CC(C)=CCN1Cc2cccc3[nH]c(=S)n(c23)C[C@@H]1C | HIV | - | - | Reverse transcriptase | nucleotide incorporation | Ki | - | 0.69 µM |
| Nc1ncnc2c1ccn2[C@H]1C[C@H](F)[C@@H](COP(=O)(O)OP(=O)(O)OP(=O)(O)O)O1 | HIV | - | RT-D67N K70R T215Y K219Q | Reverse transcriptase | nucleotide incorporation / radiometric | fold resistance | - | 1.45 |
| CC(C)(C)NC(=O)C1N(C(=O)[C@@H](O)[C@H](Cc2ccccc2)NC(=O)[C@H](CS(C)(=O)=O)NC(=O)COc2cccc3ccccc23)CSC1(C)C | HIV-1 | - | - | Protease | - | inhibition | 0.05 µM | 99% |
| CCOCn1c(Sc2ccccc2)c(CC)c(=O)[nH]c1=O | HIV | - | RT-V60T | Reverse transcriptase | nucleotide incorporation | IC50 | - | 0.321 µM |
| CC(C)(C)OC(=O)N[C@@H](CC(N)=O)C(=O)N[C@@H](Cc1ccccc1)[C@H](O)C(=O)NCC1CCCCC1 | HIV-1 | - | - | Protease | - | inhibition | 1000 µM | 47.1% |
| Cc1cn([C@H]2CC[C@@H](COP(=O)(O)OP(=O)(O)OP(=O)(O)O)O2)c(=O)[nH]c1=O | HIV | - | RT-M41L T215Y | Reverse transcriptase | nucleotide incorporation / radiometric | IC50 | - | 0.13 µM |
| Cc1noc(CN2CCn3c(nc(C(=O)NCc4ccc(F)cc4)c(O)c3=O)C2(C)C)n1 | HIV-1 | - | - | Integrase | ELISA | IC50 | - | <10 µM |
| Nc1ccn([C@@H]2CS[C@H](COP(=O)(O)OP(=O)(O)OP(=O)(O)O)O2)c(=O)n1 | HIV | - | RT-Q151M K103N | Reverse transcriptase | radiometric | Ki | - | 0.159 µM |
| COc1ccc(-c2cn3ccn(Cc4cccc(Cl)c4)c(=O)c3c(O)c2=O)cc1 | HIV-1 | - | - | Integrase | ELISA | IC50 | - | <0.01 µM |
| CSCC1NCCn2c1nc(C(=O)NCc1ccc(F)cc1)c(O)c2=O | HIV-1 | - | - | Integrase | ELISA | IC50 | - | <10 µM |
| CNc1ccccc1C(=O)O[C@H]1[C@@H](O)[C@H](n2cnc3c(N)ncnc32)O[C@@H]1COP(=O)(O)OP(=O)(O)OP(=O)(O)OP(=O)(O)OC[C@@H]1CC[C@H](n2cnc3c(=O)[nH]c(N)nc32)O1 | HIV | - | RT-D67N K70R | Reverse transcriptase | nucleotide incorporation / radiometric | fold resistance | - | 0.156 |
| CN1Cn2c(nc(C(=O)NCc3ccc(F)cc3)c(O)c2=O)C12CCCCC2 | HIV-1 | - | - | Integrase | ELISA | IC50 | - | <10 µM |
| O=C1c2c(O)c(=O)c(-c3nccs3)cn2CCN1Cc1ccc(Cl)cc1OCc1ccccc1 | HIV-1 | - | - | Integrase | ELISA | IC50 | - | 0.01–0.1 µM |
| CC(C)[C@H](N)C(=O)N[C@H](C(=O)N[C@@H](Cc1ccccc1)[C@@H](O)C(=O)N[C@@H](Cc1ccccc1)C(=O)N[C@H](C(=O)N[C@H](C(N)=O)C(C)C)C(C)C)C(C)C | HIV-1 | - | - | Protease | - | inhibition | 5 µM | 94.4% |
| Cc1nc(CN2CCn3c(nc(C(=O)NCc4ccc(F)cc4)c(O)c3=O)C2(C)C)no1 | HIV-1 | - | - | Integrase | ELISA | IC50 | - | <10 µM |
| CCC(C)C(CO)NC(=O)[C@@H]1CSCN1C(=O)[C@@H](O)[C@H](Cc1ccccc1)NC(=O)[C@H](CS(C)(=O)=O)NC(=O)COc1cccc2ccccc12 | HIV-1 | - | - | Protease | - | IC50 | - | <0.05 µM |
| CC1Cn2ccc(=O)c(O)c2C(=O)N1Cc1ccc(Cl)c(Cl)c1 | HIV-1 | - | - | Integrase | ELISA | IC50 | - | 0.01–0.1 µM |
| CSC[C@H](NC(=O)COc1cccc2ccccc12)C(=O)N[C@@H](Cc1ccccc1)[C@H](O)C(=O)N1CSC[C@H]1C(=O)NC(C)(C)C | HIV-1 | - | - | Protease | - | inhibition | 0.05 µM | 97.1% |
| CC1(C)NC(=O)n2c1nc(C(=O)NCc1ccc(F)cc1)c(O)c2=O | HIV-1 | - | - | Integrase | ELISA | IC50 | - | <10 µM |
| CC(C)(C)OC(=O)[C@@H]1CCCN1C(=O)[C@@H](O)[C@H](Cc1ccccc1)NC(=O)[C@H](CC(N)=O)NC(=O)OCc1ccccc1 | HIV-1 | - | - | Protease | - | inhibition | 5 µM | 87.4% |
| COCC(=O)Nc1cn2ccn(Cc3ccc(F)cc3)c(=O)c2c(O)c1=O | HIV-1 | - | - | Integrase | ELISA | IC50 | - | 0.01–0.1 µM |
| CC1(C)c2nc(C(=O)NCc3ccc(F)cc3)c(O)c(=O)n2CCN1Cc1nn[nH]n1 | HIV-1 | - | - | Integrase | ELISA | IC50 | - | <10 µM |
| Cc1ccc(Cl)cc1Nc1nc(C(F)(F)F)ccc1C(=O)NN1CCN(c2cccc(Cl)c2)CC1 | HIV-1 | - | Q475A | RNase H | RNase H / absorbance | fold resistance | - | >5.5 |
| O=C(O)c1cn2ccn(Cc3cccc(Cl)c3)c(=O)c2c(O)c1=O | HIV-1 | - | - | Integrase | ELISA | IC50 | - | 0.1–1 µM |
| COc1ccnc2[nH]cc(C(=O)C(=O)N3CCN(C(=O)c4ccccc4)C[C@H]3C)c12 | HIV-1 | JR-FL | - | gp120 | radiometric | Ki | - | 0.0249 µM |
| CC[C@@H](C)[C@H](NC(=O)C1CCCN1C(=O)[C@@H](O)[C@H](Cc1ccccc1)NC(=O)[C@H](CC(C)C)NC(=O)CCc1ccccc1)C(=O)N[C@H](C(N)=O)C(C)C | HIV-1 | - | - | Protease | - | inhibition | 5 µM | 68.7% |
| CN1CCn2c(nc(C(=O)NCc3ccc(F)cc3)c(O)c2=O)C(NCC2CCCCC2)C1 | HIV-1 | - | - | Integrase | ELISA | IC50 | - | <10 µM |
| COc1cc(Cl)cc(Cn2ccn3ccc(=O)c(O)c3c2=O)c1 | HIV-1 | - | - | Integrase | ELISA | IC50 | - | 0.01–0.1 µM |
| CC[C@@H](C)[C@H](NC(=O)[C@@H]1CCCN1C(=O)[C@@H](O)[C@H](CC1CCCCC1)NC(=O)[C@H](Cc1cnc[nH]1)NC(=O)CCc1ccccc1)C(=O)N[C@H](C(N)=O)C(C)C | HIV-1 | - | - | Protease | - | inhibition | 5 µM | 81.8% |
| CNC(=O)c1cc(F)ccc1CNC(=O)c1nc2n(c(=O)c1O)CCN(C)C2(C)C | HIV-1 | - | - | Integrase | ELISA | IC50 | - | <10 µM |
| Nc1ccn([C@H]2CC[C@@H](COP(=O)(O)OP(=O)(O)OP(=O)(O)O)O2)c(=O)n1 | HIV | - | RT-K65R | Reverse transcriptase | nucleotide incorporation / radiometric | fold resistance | - | 5.57 |
| O=C(Nc1ccccc1)c1cn2ccn(Cc3cccc(Cl)c3)c(=O)c2c(O)c1=O | HIV-1 | - | - | Integrase | ELISA | IC50 | - | 0.01–0.1 µM |
| CC1(C)c2nc(C(=O)NCc3ccc(F)cc3)c(O)c(=O)n2CCN1Cc1cnccn1 | HIV-1 | - | - | Integrase | ELISA | IC50 | - | <10 µM |

4 of the rows above, restated:

smiles | organism | strain or isolate | changes | protein | method | endpoint | dose | result
COc1ccc(-c2cn3ccn(Cc4cccc(Cl)c4)c(=O)c3c(O)c2=O)cc1 | HIV-1 | - | - | Integrase | ELISA | IC50 | - | <0.01 µM
CC[C@@H](C)[C@H](NC(=O)C1CCCN1C(=O)[C@@H](O)[C@H](Cc1ccccc1)NC(=O)[C@H](CC(C)C)NC(=O)CCc1ccccc1)C(=O)N[C@H](C(N)=O)C(C)C | HIV-1 | - | - | Protease | - | inhibition | 5 µM | 68.7%
Cc1nc(CN2CCn3c(nc(C(=O)NCc4ccc(F)cc4)c(O)c3=O)C2(C)C)no1 | HIV-1 | - | - | Integrase | ELISA | IC50 | - | <10 µM
O=C(Nc1ccccc1)c1cn2ccn(Cc3cccc(Cl)c3)c(=O)c2c(O)c1=O | HIV-1 | - | - | Integrase | ELISA | IC50 | - | 0.01–0.1 µM